Compound potency records, mixed from different reports. Data source: NIAID ChemDB in PubChem.

Shared fields: tests in culture; species: Mycobacterium bovis BCG

Rows are shuffled and stem from different studies. An empty or dashed field is not shown. MIC50, MIC90 and the like: level of inhibition, or share of isolates inhibited.

structure | strain | read by | setting | read-out | value
Cc1c(N)nc([C@H](CC(N)=O)NC[C@H](N)C(N)=O)nc1C(=O)N[C@H](C(=O)N[C@H](C)[C@@H](O)[C@H](C)C(=O)N[C@H](C(=O)NCCc1nc(-c2nc(C(=O)NCCC[S+](C)C)cs2)cs1)[C@@H](C)O)C(O[C@@H]1O[C@@H](CO)[C@@H](O)[C@H](O)[C@@H]1O[C@H]1O[C@H](CO)[C@@H](O)[C@H](OC(N)=O)[C@@H]1O)c1cnc[nH]1 | Pasteur |  |  | MIC | 3.125 µM
CCCCCCCC(=O)OC(=O)CCCCCC | 1173P2 | resazurin | 48 h | MIC | 500 µg/mL
COC(=O)Cc1ccc2[nH]c3cc(Cl)ccc3c2c1 |  | resazurin / visual reading / absorbance |  | MIC99 | 31.3 µg/mL
Cc1cccc(Cn2cc(/C=N/Nc3nncs3)c3ccccc32)c1 | 1173P2 | broth dilution | 24 h | MIC100 | 15.63 µg/mL
O=C(OC(=O)c1ccccc1)c1ccccc1 | 1173P2 | resazurin | 24 h | MIC | 125 µg/mL
CC(C(=O)O)c1ccc2c(c1)[nH]c1ccc(C3CCCCC3)cc12 |  | resazurin / visual reading / absorbance |  | MIC99 | 250 µg/mL
CC(=O)[C@]1(O)Cc2c(O)c3c(c(O)c2[C@@H](O[C@H]2C[C@H](N)[C@H](O)[C@H](C)O2)C1)C(=O)c1ccccc1C3=O | Pasteur |  |  | MIC | 6.25 µM
O=C(O)Cc1ccc2[nH]c3ccc(Cl)cc3c2c1 |  | resazurin / visual reading / absorbance |  | MIC99 | 125 µg/mL
CCn1cc(/C=N/NC(=S)NN)c2ccccc21 | 1173P2 | broth dilution | 48 h | MIC100 | >500 µg/mL
C#CC(=O)OC | 1173P2 | resazurin | 48 h | MIC | 7.75 µg/mL
CCCCCCn1cc(/C=N/Nc2nncs2)c2ccccc21 | 1173P2 | broth dilution | 48 h | MIC100 | 15.63 µg/mL
S=C(S)N1CCCC1 | Pasteur |  |  | MIC | 1.56 µM
Clc1ccc(Cn2cc(/C=N/Nc3nncs3)c3ccccc32)cc1 | 1173P2 | broth dilution | 24 h | MIC100 | 3.91 µg/mL
Clc1ccc2[nH]c3ccccc3c2c1 |  | resazurin / visual reading / absorbance |  | MIC99 | >500 µg/mL
c1ccc(/C(=N/Nc2nc3ccccc3s2)c2ccccn2)cc1 | Pasteur |  |  | MIC | >100 µM
Cc1cccc(Cn2cc(/C=N/NC(=S)NN)c3ccccc32)c1 | 1173P2 | broth dilution | 24 h | MIC100 | >500 µg/mL
C#CCOC(=O)CCCCCC | 1173P2 | resazurin | 24 h | MIC | 125 µg/mL
NNC(=S)N/N=C/c1cn(Cc2cccc(F)c2)c2ccccc12 | 1173P2 | broth dilution | 48 h | MIC100 | >500 µg/mL
COC(=O)Cc1ccc2[nH]c3ccccc3c2c1 |  | resazurin / visual reading / absorbance |  | MIC99 | 500 µg/mL

Repeating the final 2 entries:

{"structure": "NNC(=S)N/N=C/c1cn(Cc2cccc(F)c2)c2ccccc12", "strain": "1173P2", "read by": "broth dilution", "setting": "48 h", "read-out": "MIC100", "value": ">500 µg/mL"}
{"structure": "COC(=O)Cc1ccc2[nH]c3ccccc3c2c1", "read by": "resazurin / visual reading / absorbance", "read-out": "MIC99", "value": "500 µg/mL"}